Experimental findings from patent US20170226204A1 (PERONGEN BIOTHERAPEUTICS SUZHOU, published 2017) are described below.

This assay deals with T1, human CD7 molecule (human, UniProt P09564 26-240).
T1 sequence (looked up): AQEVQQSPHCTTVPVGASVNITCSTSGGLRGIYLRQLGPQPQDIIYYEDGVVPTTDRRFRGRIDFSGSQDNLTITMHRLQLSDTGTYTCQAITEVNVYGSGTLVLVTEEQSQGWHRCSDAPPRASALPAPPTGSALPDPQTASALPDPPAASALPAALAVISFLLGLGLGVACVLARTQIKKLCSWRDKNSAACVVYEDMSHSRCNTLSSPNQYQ
Briefly: cell-based or functional assay.

B1: monovalent Nanobody immunotoxin PG001 (VHH-6-PE38) (other)
chain: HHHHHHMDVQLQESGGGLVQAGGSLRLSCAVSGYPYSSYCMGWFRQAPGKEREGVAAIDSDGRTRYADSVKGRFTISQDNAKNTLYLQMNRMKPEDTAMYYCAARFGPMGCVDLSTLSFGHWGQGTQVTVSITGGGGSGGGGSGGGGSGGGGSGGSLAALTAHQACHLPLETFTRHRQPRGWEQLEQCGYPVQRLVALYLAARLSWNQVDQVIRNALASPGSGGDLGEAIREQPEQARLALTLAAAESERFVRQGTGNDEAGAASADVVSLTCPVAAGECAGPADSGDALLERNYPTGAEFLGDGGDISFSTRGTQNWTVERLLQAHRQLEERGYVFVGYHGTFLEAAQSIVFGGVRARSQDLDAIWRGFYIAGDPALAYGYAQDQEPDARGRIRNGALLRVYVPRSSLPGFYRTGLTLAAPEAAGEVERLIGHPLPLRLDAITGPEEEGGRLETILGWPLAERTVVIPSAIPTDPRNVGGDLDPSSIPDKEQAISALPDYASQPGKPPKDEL
Regarding B1, the “inhibition of proliferation of CEM cells (WST-8, 72 h), EC50” value was about 500 pM and the “inhibition of proliferation of Jurkat cells (WST-8, 72 h), EC50” value was about 1000 pM.
